Experimental data: patent US20110256180A1 (CHILDREN S HOSPITAL AND RESEARCH CENTER AT OAKLAND, published 2011)

Columns and labels:
Assay in all cases: ELISA, grade 0-2 vs wildtype (2 similar, 1 diminished)
[1] = molecular target: fHbp ID 1 Q113A mutant (Neisseria meningitidis) (UniProt E6MV22)
[2] = molecular target: fHbp ID 77 R41S/D121A double mutant (Neisseria meningitidis)
[3] = molecular target: fHbp ID 22 D201A mutant (Neisseria meningitidis)
[4] = molecular target: fHbp ID 1 E218A mutant (Neisseria meningitidis) (UniProt E6MV22)
[5] = molecular target: fHbp ID 22 E202A mutant (Neisseria meningitidis)
[6] = molecular target: fHbp ID 1 Q87A mutant (Neisseria meningitidis) (UniProt E6MV22)
[7] = molecular target: fHbp ID 22 Q38A mutant (Neisseria meningitidis)
[8] = molecular target: fHbp ID 77 R41S/K113A double mutant (Neisseria meningitidis)
[9] = molecular target: fHbp ID 77 R41S/K119A double mutant (Neisseria meningitidis)
[10] = molecular target: fHbp ID 1 R130A mutant (Neisseria meningitidis) (UniProt E6MV22)
[11] = molecular target: fHbp ID 22 Q126A mutant (Neisseria meningitidis)
[12] = molecular target: fHbp ID 22 R80A mutant (Neisseria meningitidis)
[13] = molecular target: fHbp ID 22 E218A mutant (Neisseria meningitidis)
[14] = molecular target: fHbp ID 22 D211A mutant (Neisseria meningitidis)
[15] = molecular target: fHbp ID 22 E248A mutant (Neisseria meningitidis)
[16] = molecular target: fHbp ID 1 E218A/E239A double mutant (Neisseria meningitidis) (UniProt E6MV22)
[17] = molecular target: fHbp ID 15 E241K mutant (Neisseria meningitidis)
[18] = molecular target: fHbp ID 77 D121A mutant (Neisseria meningitidis)
[19] = molecular target: fHbp ID 77 K113A mutant (Neisseria meningitidis)
[20] = molecular target: fHbp ID 77 K119A mutant (Neisseria meningitidis)

Question: For “anti-fHbp monoclonal antibody JAR 4 (murine)”, which percent decrease in mAb binding compared with wildtype fHbp [1] is on record?
Answer: The percent decrease in mAb binding compared with wildtype fHbp was < 30%.

Question: What about the percent decrease in MAb binding compared with wildtype [2] of the same substance?
Answer: The percent decrease in MAb binding compared with wildtype was > 30%.

Question: And the percent decrease in mAb binding compared with wildtype fHbp [3]?
Answer: Its percent decrease in mAb binding compared with wildtype fHbp is > 30%.

Question: And the percent decrease in MAb binding compared with wildtype [4]?
Answer: The percent decrease in MAb binding compared with wildtype was < 30%.

Question: What about the percent decrease in mAb binding compared with wildtype fHbp [5] of the same substance?
Answer: The percent decrease in mAb binding compared with wildtype fHbp was > 30%.

Question: What about the percent decrease in mAb binding compared with wildtype fHbp [6] of the same substance?
Answer: Its percent decrease in mAb binding compared with wildtype fHbp is < 30%.

Question: What about the percent decrease in mAb binding compared with wildtype fHbp [7] of the same substance?
Answer: The percent decrease in mAb binding compared with wildtype fHbp was > 30%.

Question: And the percent decrease in MAb binding compared with wildtype [8]?
Answer: Its percent decrease in MAb binding compared with wildtype is > 30%.

Question: And the percent decrease in MAb binding compared with wildtype [9]?
Answer: The percent decrease in MAb binding compared with wildtype was > 30%.

Question: What about the percent decrease in MAb binding compared with wildtype [10] of the same substance?
Answer: The percent decrease in MAb binding compared with wildtype was > 30%.

Question: What about the percent decrease in mAb binding compared with wildtype fHbp [11] of the same substance?
Answer: The percent decrease in mAb binding compared with wildtype fHbp was < 30%.

Question: Which percent decrease in MAb binding compared with wildtype [12] does the source give for anti-fHbp monoclonal antibody JAR 35 here?
Answer: The percent decrease in MAb binding compared with wildtype was < 30%.

Question: And the percent decrease in MAb binding compared with wildtype [13]?
Answer: Its percent decrease in MAb binding compared with wildtype is < 30%.

Question: And the percent decrease in MAb binding compared with wildtype [14]?
Answer: Its percent decrease in MAb binding compared with wildtype is < 30%.

Question: What about the percent decrease in MAb binding compared with wildtype [15] of the same substance?
Answer: The percent decrease in MAb binding compared with wildtype was < 30%.

Question: What does the source list for “anti-fHbp monoclonal antibody JAR 5 (murine, IgG2b)”?
Answer: percent decrease in MAb binding compared with wildtype [16]: < 30%; percent decrease in mAb binding compared with wildtype fHbp [17]: < 30%

Question: What does the source list for anti-fHbp monoclonal antibody JAR 31?
Answer: percent decrease in mAb binding compared with wildtype fHbp [18]: < 30%; percent decrease in mAb binding compared with wildtype fHbp [3]: > 30%; percent decrease in mAb binding compared with wildtype fHbp [19]: < 30%; percent decrease in mAb binding compared with wildtype fHbp [5]: < 30%; percent decrease in mAb binding compared with wildtype fHbp [20]: < 30%; percent decrease in mAb binding compared with wildtype fHbp [7]: < 30%; percent decrease in mAb binding compared with wildtype fHbp [11]: < 30%
